Laboratory results published in US20230067015A1, “SYSTEMS AND METHODS FOR ANTIBACTERIAL SUSCEPTIBILITY TESTING USING DYNAMIC LASER SPECKLE IMAGING” (The Penn State Research Foundation, priority 2020, published 2023).

System: E. coli K-12
Experiment: Mie scattering analysis of speckle intensity ratio / fitted particle size
Type: cell-based, Escherichia coli

Compound: CC1(C)S[C@@H]2[C@H](NC(=O)[C@H](N)c3ccccc3)C(=O)N2[C@H]1C(=O)O [ampicillin, Ampicillin]
- ratio of the 1,000th pixel to the 1st pixel (0.25 × MIC, t0): 3.131
- ratio of the 1,000th pixel to the 1st pixel (0.25 × MIC, t1): 3.831
- ratio of the 1,000th pixel to the 1st pixel (0.25 × MIC, t2): 4.303
- ratio of the 1,000th pixel to the 1st pixel (0.25 × MIC, t3): 4.332
- ratio of the 1,000th pixel to the 1st pixel (0.25 × MIC, t4): 4.496
- ratio of the 1,000th pixel to the 1st pixel (0.5 × MIC, t0): 3.221
- ratio of the 1,000th pixel to the 1st pixel (0.5 × MIC, t1): 3.85
- ratio of the 1,000th pixel to the 1st pixel (0.5 × MIC, t2): 4.191
- ratio of the 1,000th pixel to the 1st pixel (0.5 × MIC, t3): 4.556
- ratio of the 1,000th pixel to the 1st pixel (0.5 × MIC, t4): 4.466
- ratio of the 1,000th pixel to the 1st pixel (1 × MIC, t0): 2.738
- ratio of the 1,000th pixel to the 1st pixel (1 × MIC, t1): 3.547
- ratio of the 1,000th pixel to the 1st pixel (1 × MIC, t2): 3.82
- ratio of the 1,000th pixel to the 1st pixel (1 × MIC, t3): 3.2
- ratio of the 1,000th pixel to the 1st pixel (1 × MIC, t4): 2.856
- ratio of the 1,000th pixel to the 1st pixel (2 × MIC, t0): 2.407
- ratio of the 1,000th pixel to the 1st pixel (2 × MIC, t1): 3.418
- ratio of the 1,000th pixel to the 1st pixel (2 × MIC, t2): 2.76
- ratio of the 1,000th pixel to the 1st pixel (2 × MIC, t3): 2.442
- ratio of the 1,000th pixel to the 1st pixel (2 × MIC, t4): 2.201

Compound: gentamicin
- ratio of the 1,000th pixel to the 1st pixel (0.25 × MIC, t0): 2.606
- ratio of the 1,000th pixel to the 1st pixel (0.25 × MIC, t1): 3.586
- ratio of the 1,000th pixel to the 1st pixel (0.25 × MIC, t2): 3.617
- ratio of the 1,000th pixel to the 1st pixel (0.25 × MIC, t3): 3.844
- ratio of the 1,000th pixel to the 1st pixel (0.25 × MIC, t4): 3.578
- ratio of the 1,000th pixel to the 1st pixel (0.5 × MIC, t0): 3.072
- ratio of the 1,000th pixel to the 1st pixel (0.5 × MIC, t1): 3.474
- ratio of the 1,000th pixel to the 1st pixel (0.5 × MIC, t2): 3.615
- ratio of the 1,000th pixel to the 1st pixel (0.5 × MIC, t3): 3.416
- ratio of the 1,000th pixel to the 1st pixel (0.5 × MIC, t4): 3.386
- ratio of the 1,000th pixel to the 1st pixel (1 × MIC, t0): 2.913
- ratio of the 1,000th pixel to the 1st pixel (1 × MIC, t1): 3.02
- ratio of the 1,000th pixel to the 1st pixel (1 × MIC, t2): 2.767
- ratio of the 1,000th pixel to the 1st pixel (1 × MIC, t3): 3.082
- ratio of the 1,000th pixel to the 1st pixel (1 × MIC, t4): 3.058
- ratio of the 1,000th pixel to the 1st pixel (2 × MIC, t0): 2.82
- ratio of the 1,000th pixel to the 1st pixel (2 × MIC, t1): 2.954
- ratio of the 1,000th pixel to the 1st pixel (2 × MIC, t2): 2.958
- ratio of the 1,000th pixel to the 1st pixel (2 × MIC, t3): 2.809
- ratio of the 1,000th pixel to the 1st pixel (2 × MIC, t4): 2.682
- change of the measured ratio (bacterial size) (over concentrations and time): no significant change
